Anti-infective test results gathered from many reports (values: NIAID ChemDB through PubChem).

Shared fields: growth or infection tests; organism: Candida albicans; read-out: zone

Lines come from different laboratories, so protocols vary.

compound,strain,method,tested at,value
CCN(CC)CCSc1nc(Cc2ccc(Cl)cc2)c(C)c(=O)[nH]1,ATCC 10231,agar diffusion / agar,200 µg/disc,<10 mm
Cc1cccc(Nc2ccc(N)c3nc[nH]c(=O)c23)c1,ATCC 10231,agar diffusion,1000 µg/mL,0 mm
O=C(NN=Cc1cccs1)c1snnc1C(F)(F)F,MTCC 227,agar diffusion / agar,150 µg/mL,0 mm
CCn1c(C(F)(F)F)nc2cc([N+](=O)[O-])ccc21,MTCC 227,,500 µg/mL,700 mm
Oc1ccc(/C=C/c2nc3ccc(Cl)cc3[nH]2)cc1,,,25 µg/mL,10.12 mm
C1=N\n2c(nnc2-c2cccnc2)SCCCCSc2nnc(-c3cccnc3)n2/N=C\c2ccccc2OCCCCOc2ccccc2/1,RCMB 005003,agar diffusion / agar,2.5 mg/mL,1–5 mm
CN1CCN(c2nc(Nc3ccc(C#N)c(C(F)(F)F)c3)nc(Oc3ccnc4ccccc34)n2)CC1,MTCC 183,agar,100 µg/mL,<10 mm
O=[N+]([O-])c1ccc2nc(C(F)(F)F)n(CCCCl)c2c1,MTCC 227,,500 µg/mL,400 mm
Cn1c(=O)c(-c2[nH][nH]c(=O)c2N=Nc2cccc(Br)c2)c(O)c2ccccc21,ATCC 10231,agar diffusion,1 mg/mL,15 mm
O=C1NC(=O)/C(=C/c2cc3c(=O)[nH]c(=O)nc-3oc2-c2ccccc2O)S1,fungal strain,agar diffusion / agar,100 µg/mL,6 mm
O=[N+]([O-])c1ccc2nc(/C=C/c3ccc(Cl)cc3)[nH]c2c1,,,25 µg/mL,11.26 mm
Cc1ccc2c(c1)sc1nc(=O)cc(C(=O)NN)n12,,agar diffusion,5000 µg/mL,32 mm
CCc1c(Cc2ccc(OC)c(OC)c2)[nH]c(=S)[nH]c1=O,ATCC 10231,agar diffusion / agar,200 µg/disc,<10 mm
COc1ccc(C(CCn2ccnc2)OC(=O)c2ccc(Cl)cc2)cc1,,agar diffusion,1000 µg,16 mm
O=C1NC(=O)/C(=C/c2cnc(=S)[nH]c2-c2ccccc2O)S1,fungal strain,agar diffusion / agar,100 µg/mL,11 mm
O=C(OC(CCn1ccnc1)c1ccccc1)c1ccncc1,,agar diffusion,1000 µg,14 mm
O=C1N/C(=N/N=C/c2ccc(Cl)cc2Cl)S/C1=C/c1ccc(Br)cc1,ATCC 10231,agar diffusion,200 µg,0 mm
O=[N+]([O-])c1ccc(/C=C/c2nc3ccc([N+](=O)[O-])cc3[nH]2)cc1,,,25 µg/mL,10.08 mm
Cc1ccccc1Nc1ccc(Nc2c(Cl)c(F)c(C#N)c(F)c2C#N)c2nc[nH]c(=O)c12,ATCC 10231,agar diffusion,1000 µg/mL,6 mm
COC(=O)c1cc(=O)nc2sc3cc(C)ccc3n12,,agar diffusion,5000 µg/mL,6 mm
COc1ccc(Cc2ccc(OC)c(-c3nnc4sc(-c5ccc([N+](=O)[O-])cc5)nn34)c2)cc1-c1nnc2sc(-c3ccc([N+](=O)[O-])cc3)nn12,ATCC 10231,agar diffusion / agar,100 µg/disc,22 mm
Cc1ccc(N=c2cc(N)nc3sc(S(N)(=O)=O)nn23)cc1,,agar diffusion,5000 µg/mL,6 mm
O=C(OC(CCn1ccnc1)c1ccccc1)c1ccc(Cl)c(Cl)c1,,agar diffusion,1000 µg,17 mm
CCc1c(Cc2ccc(OC)c(OC)c2)nc(SCCN2CCOCC2)[nH]c1=O,ATCC 10231,agar diffusion / agar,200 µg/disc,25 mm
N#CC1=C(Nc2ccc(Br)cc2)N2N=C(S(N)(=O)=O)SC2=NC1c1ccccc1,,agar diffusion,5000 µg/mL,3 mm
O=C1NC(=O)/C(=C/C2=C(c3ccccc3O)Sc3nnc(-c4ccccc4)n3N=C2)S1,fungal strain,agar diffusion / agar,100 µg/mL,9 mm
COc1ccccc1/C=N/N=C1/NC(=O)/C(=C\c2c(Cl)cccc2Cl)S1,ATCC 10231,agar diffusion,200 µg,9 mm
CCOC(=O)Cn1c(C(F)(F)C(F)(F)F)nc2cc([N+](=O)[O-])ccc21,MTCC 227,,500 µg/mL,800 mm
Cc1cc(=O)n(-c2ccc(N=Nc3c(-c4c(O)c5ccccc5n(C)c4=O)[nH][nH]c3=O)cc2)n1C,ATCC 10231,agar diffusion,1 mg/mL,10 mm
O=C(CNc1nncs1)Cc1ccc(-c2nc(-c3ccccc3)c(-c3ccccc3)s2)cc1,ATCC 10231,agar diffusion / agar,100 µg/mL,26 mm
Cc1cc(O)c(C(C)C)cc1Cl,CN,agar diffusion,100 µg/mL,10 mm
CCOC(=O)Cn1c(C(F)(F)C(F)(F)F)nc2ccc(C(=O)c3ccccc3)cc21,MTCC 227,,500 µg/mL,700 mm
O=C(OC(CCn1ccnc1)c1ccccc1)c1ccc(Cl)s1,,agar diffusion,1000 µg,16 mm
O=C(NN=C1CCCC1)c1snnc1C(F)(F)F,MTCC 227,agar diffusion / agar,100 µg/mL,0 mm
C#CCn1c(C(F)(F)F)nc2ccc([N+](=O)[O-])cc21,MTCC 227,,500 µg/mL,600 mm
c1ccc(-c2nc(-c3ccc(N4CCCCC4)cc3)sc2-c2ccccc2)cc1,ATCC 10231,agar diffusion / agar,100 µg/mL,20 mm
Cc1c(Cc2ccc(Cl)cc2)nc(SCCN2C(=O)c3ccccc3C2=O)[nH]c1=O,ATCC 10231,agar diffusion / agar,200 µg/disc,22 mm
Cn1c(=O)c(-c2[nH][nH]c(=O)c2C=Nc2ccc(Cl)cc2)c(O)c2ccccc21,ATCC 10231,agar diffusion,1 mg/mL,22 mm
COc1ccccc1/C=C1/S/C(=N\N=C\c2c(Cl)cccc2Cl)NC1=O,ATCC 10231,agar diffusion,200 µg,24 mm
Cc1c(Cc2ccc(Cl)cc2)nc(SCCN2CCCC2)[nH]c1=O,ATCC 10231,agar diffusion / agar,200 µg/disc,13 mm
COc1ccc(Cc2ccc(OC)c(-c3nnc4sc(Cc5ccc(Cl)cc5)nn34)c2)cc1-c1nnc2sc(Cc3ccc(Cl)cc3)nn12,ATCC 10231,agar diffusion / agar,100 µg/disc,16 mm
N#Cc1ccc(Nc2nc(Oc3ccnc4ccccc34)nc(N3CCN(c4ccccc4)CC3)n2)cc1C(F)(F)F,MTCC 183,agar,100 µg/mL,<10 mm
Clc1ccc(Nc2ccc(-c3nc(-c4ccccc4)c(-c4ccccc4)s3)cc2)cc1,ATCC 10231,agar diffusion / agar,100 µg/mL,23 mm
Cc1ccc(NC2=C(C#N)C(c3ccc(Br)cc3)N=C3SC(S(N)(=O)=O)=NN32)cc1,,agar diffusion,5000 µg/mL,4 mm
O=C(COc1ccc(-c2nc(-c3ccccc3)c(-c3ccccc3)s2)cc1)CN1CCOCC1,ATCC 10231,agar diffusion / agar,100 µg/mL,20 mm
Cc1ccc(NC2=C(C#N)C(c3ccccc3)N=C3SC(S(N)(=O)=O)=NN32)cc1,,agar diffusion,5000 µg/mL,4 mm
Cc1ccc(Nc2ccc(N)c3nc[nH]c(=O)c23)cc1,ATCC 10231,agar diffusion,1000 µg/mL,0 mm
O=C(NN=Cc1ccco1)c1snnc1C(F)(F)F,MTCC 227,agar diffusion / agar,150 µg/mL,0 mm
CCc1c(Cc2ccc(OC)c(OC)c2)nc(SCCN2CCCC2)[nH]c1=O,ATCC 10231,agar diffusion / agar,200 µg/disc,35 mm
O=C(NN=C1CCCCCC1)c1snnc1C(F)(F)F,MTCC 227,agar diffusion / agar,100 µg/mL,0 mm
CCc1c(Cc2ccc(Cl)cc2)nc(SCCN2CCCC2)[nH]c1=O,ATCC 10231,agar diffusion / agar,200 µg/disc,32 mm
COc1ccc(Cc2ccc(OC)c(-c3nnc4sc(-c5cccc([N+](=O)[O-])c5)nn34)c2)cc1-c1nnc2sc(-c3cccc([N+](=O)[O-])c3)nn12,ATCC 10231,agar diffusion / agar,100 µg/disc,11 mm
Cn1c(=O)c(-c2[nH][nH]c(=O)c2N=Nc2ccc(Cl)cc2)c(O)c2ccccc21,ATCC 10231,agar diffusion,1 mg/mL,12 mm
C[C@@H]1[C@H](O)[C@@H](C)/C=C/C=C/C=C/C=C/C=C/C=C/C=C/[C@H](O[C@@H]2O[C@H](C)[C@@H](O)[C@H](N)[C@@H]2O)C[C@@H]2O[C@](O)(C[C@@H](O)C[C@@H](O)[C@H](O)CC[C@@H](O)C[C@@H](O)CC(=O)O[C@H]1C)C[C@H](O)[C@H]2C(=O)O,MTCC 227,agar diffusion / agar,100 µg/mL,23.5 mm
COc1ccc(Cc2ccc(OC)c(-c3nnc4sc(-c5ccc(Cl)cc5)nn34)c2)cc1-c1nnc2sc(-c3ccc(Cl)cc3)nn12,ATCC 10231,agar diffusion / agar,100 µg/disc,10 mm
O=[N+]([O-])c1ccc2c(c1)nc(C(F)(F)F)n2CCCCl,MTCC 227,,500 µg/mL,300 mm
O=C1N/C(=N/N=C/c2c(Cl)cccc2Cl)S/C1=C/c1coc2ccc(F)cc2c1=O,ATCC 10231,agar diffusion,200 µg,0 mm
Nc1ccc(Nc2ccc(F)cc2)c2c(=O)[nH]cnc12,ATCC 10231,agar diffusion,1000 µg/mL,0 mm
N#CC1=C(c2ccccc2)C(C#N)C(=O)C2=C1N=C/C(=C\c1sc(=O)[nH]c1O)C(c1ccccc1O)=N2,fungal strain,agar diffusion / agar,100 µg/mL,14 mm
COc1ccc(/C=c2\c(=O)[nH][nH]\c2=C2/C(=O)c3ccccc3N(C)C2=O)cc1,ATCC 10231,agar diffusion,1 mg/mL,9 mm
N#Cc1c(F)c(Cl)c(Nc2ccc(Nc3ccccc3)c3c(=O)[nH]cnc23)c(C#N)c1F,ATCC 10231,agar diffusion,1000 µg/mL,0 mm

Repeating the first 5 entries:

compound,strain,method,tested at,value
CCN(CC)CCSc1nc(Cc2ccc(Cl)cc2)c(C)c(=O)[nH]1,ATCC 10231,agar diffusion / agar,200 µg/disc,<10 mm
Cc1cccc(Nc2ccc(N)c3nc[nH]c(=O)c23)c1,ATCC 10231,agar diffusion,1000 µg/mL,0 mm
O=C(NN=Cc1cccs1)c1snnc1C(F)(F)F,MTCC 227,agar diffusion / agar,150 µg/mL,0 mm
CCn1c(C(F)(F)F)nc2cc([N+](=O)[O-])ccc21,MTCC 227,,500 µg/mL,700 mm
Oc1ccc(/C=C/c2nc3ccc(Cl)cc3[nH]2)cc1,,,25 µg/mL,10.12 mm

Two numbers with a dash give a range or band. Zone: diameter of growth inhibition. An empty or dashed field is not shown.